Measured values from several laboratories, pooled; numbers as filed in NIAID ChemDB.

All rows: cytotoxicity tests; measure: CC50

Rows are shuffled and stem from different studies. An empty or dashed field is not shown. Two numbers with a dash give a range or band. CCn is the concentration with n% toxicity to the cells.

compound	cell line	read by	result
CCCCC(=O)O/N=C1\c2ccccc2-c2c1c(-n1ccnc1)nc1ccc(Br)cc21	U-937	MTT	>20 µg/mL
N#CC(=C(/N)Sc1ccccc1N)/C(C#N)=C(\N)Sc1ccccc1N	Akata	MTS	7.376 µM
O=C(O)/C=C/c1ccc(O)c(O)c1	RC-37	neutral red	150 µg/mL
Cc1cn([C@H]2C[C@H](N=[N+]=[N-])[C@@H](CO)O2)c(=O)[nH]c1=O	CEM174	-	>100 µM
NC(=O)c1nn(Cc2ccccc2NC(=O)c2ccccc2)c2ccccc12	Huh7.5.1	MTT	>10 µM
Nc1nccc2c1ncn2[C@@H]1C[C@H](CO)[C@@H](O)[C@H]1O	PRK	-	2.2 µg/mL
O=c1nc(N2CCC(=NOCc3ccccc3)CC2)sc2c([N+](=O)[O-])cc(C(F)(F)F)cc12	A-594	MTT	441 µg/mL
Nc1nc(=O)n([C@@H]2CC[C@H](CO)O2)cc1F	Macrophage	-	>100 µM
Nc1nc(N)c2ncn(CCOCP(=O)(O)O)c2n1	PBL	-	12 µM
CN(C)C(=O)O/N=C1\c2ccccc2-c2c1c(-n1ccnc1)nc1ccc(Br)cc21	U-937	MTT	20 µg/mL
Cc1ccccc1C(=O)Nc1cccc(Cn2nc(C(N)=O)c3ccccc32)c1	Huh7.5.1	MTT	10.31 µM
COc1ccc(CNC(=O)NC2N=C(c3ccccc3)c3ccccc3NC2=O)cc1	HEP-2	-	4 µM
CCON=C1CN(c2nc(=O)c3cc(C(F)(F)F)cc([N+](=O)[O-])c3s2)C1	A-594	MTT	707 µg/mL
N#Cc1c(SCCO)nsc1-c1ccccc1	HEP-2	-	5 µg/mL
CCON=C1CCN(c2nc(=O)c3cc(C(F)(F)F)cc([N+](=O)[O-])c3s2)CC1	A-594	MTT	191 µg/mL
N#Cc1c(N2CCOCC2)nsc1-c1ccccc1	HEP-2	-	1 µg/mL
NC(=O)c1ncn([C@@H]2O[C@H](CO)[C@@H](O)[C@H]2O)n1	LLC-MK2	-	200–1000 µg/mL
N#CCSc1nsc(-c2ccccc2)c1C#N	L929	-	10 µg/mL
CC(C)(C)OC(=O)NC(Cc1ccccc1)C(=O)O/N=C1\c2ccccc2-c2c1c(N1CCN(c3ccccn3)CC1)nc1ccc(Br)cc21	U-937	MTT	>20 µg/mL
O=c1nc(N2CC(=NOCc3ccccc3)C2)sc2c([N+](=O)[O-])cc(C(F)(F)F)cc12	A-594	MTT	158 µg/mL
Cc1cn([C@H]2C[C@H](N=[N+]=[N-])[C@@H](CO)O2)c(=O)[nH]c1=O	MM	-	>100 µM
O=C1Cc2c([nH]c3ccc(Br)cc23)-c2ccccc2N1	Akata	MTS	5.127 µM
CCCCCCCC(=O)OC1(C)c2ccccc2-c2c1c(-n1ccnc1)nc1ccc(Br)cc21	U-937	MTT	>10 µg/mL
CON=C1CN(c2nc(=O)c3cc(C(F)(F)F)cc([N+](=O)[O-])c3s2)C1	A-594	MTT	91.37 µg/mL
O=c1[nH]c(=O)n([C@H]2C[C@H](O)[C@@H](CO)O2)cc1C12B3B4B5B6B(B3B1B42)B1B5C61	CFU-GM	-	25.6 µM
CCSCCCCCCCCCCCC(=O)OC[C@@H]1O[C@H](n2cc(F)c(N)nc2=O)CS1	MAGI	MTT	93.6 µM
Cc1ccccc1C(=O)NC1N=C(c2ccccc2)c2ccccc2NC1=O	VERO	-	3 µM
COc1ccccc1C(=O)Nc1cccc(Cn2nc(C(N)=O)c3ccccc32)c1	Huh7.5.1	MTT	>10 µM
O=c1cc(N2CCOCC2)oc2c(-c3ccccc3)cccc12	Akata	MTS	6.16 µM
Cc1cn([C@H]2C[C@H](O)[C@@](C#N)(COP(=O)(O)OP(=O)(O)OP(=O)(O)O)C2)c(=O)[nH]c1=O	MT4-GFP	luminescence	>42 µM
NC(=O)c1ncn([C@@H]2O[C@H](CO)[C@@H](O)[C@H]2O)n1	PRK	-	5.6 µg/mL
Nc1nc(=O)n([C@@H]2CS[C@H](CO)O2)cc1F	MAGI	MTT	>200 µM
CN(CC1CCCCC1)C1CCN(c2nc(=O)c3cc(C(F)(F)F)cc([N+](=O)[O-])c3s2)CC1	A-594	MTT	531 µg/mL
N#Cc1c(N2CCCCC2)nsc1-c1ccccc1	HEP-2	-	25 µg/mL
COc1cccc(C(=O)Nc2cccc(Cn3nc(C(N)=O)c4ccccc43)c2)c1	Huh7.5.1	MTT	>10 µM
C[C@H](CCOc1ccc(-c2ccc(Cl)cc2)cc1)CCN1CCN(c2ccncc2)C1=O	RD	-	>25 µM
Nc1ccn([C@H]2CC[C@@H](CO)O2)c(=O)n1	BFU-E	-	0.05 µM
CS(=O)(=O)c1ccc(C(=O)NC2N=C(c3ccccc3)c3ccccc3NC2=O)c(Cl)c1	HEP-2	-	1.5 µM
NC(=O)CCNC(=O)c1ccccc1SC(=O)c1cccnc1	MM	XTT	>100 µM
CCCCNC(=O)NC1N=C(c2ccccc2)c2ccccc2NC1=O	HEP-2	-	1.5 µM
CC(=O)c1ccc(C(=O)Nc2cccc(Cn3nc(C(N)=O)c4ccccc43)c2)cc1	Huh7.5.1	MTT	>10 µM
CC(=O)OC1C(COC(=O)/C=C/c2ccc(O)cc2)OC(COC(=O)/C=C/c2ccc(O)cc2)(OC2OC(COC(=O)/C=C/c3ccc(O)cc3)[C@@H](OC(C)=O)[C@H](O)[C@H]2O)C1OC(=O)/C=C/c1ccc(O)cc1	HCT116	MTT	3.24 µg/mL
Nc1ncnc2c1ncn2C[C@@H](CO)OCP(=O)(O)O	PBL	-	50 µM